Anti-infective test results gathered from many reports (values: NIAID ChemDB through PubChem).

Shared fields: tests on isolated targets; species: Human cytomegalovirus; read-out: IC50

ICn: concentration for n% inhibition. Rows are shuffled and stem from different studies. An empty or dashed field is not shown.

| compound | protein | read by | value |
|---|---|---|---|
| O=C(O)C(=O)O | DNA polymerase |  | 130 µM |
| NC(=O)c1ccc[n+]([C@@H]2O[C@H](COP(=O)([O-])OP(=O)(O)OC[C@H]3O[C@@H](n4cnc5c(N)ncnc54)[C@H](O)[C@@H]3O)[C@@H](O)[C@H]2O)c1 | Protease |  | >>20 µM |
| O=C(P(=O)(O)O)P(=O)(O)O | DNA polymerase |  | 6 µM |
| COc1ccc2c(c1)c1c3c(c4c5ccccc5n(C)c4c1n2CC(O)CN(C)C)C(=O)NC3=O | HCMV protein kinase pUL97 |  | >1 µM |
| O=P(O)(O)OP(=O)(O)O | DNA polymerase |  | 500 µM |
| CC(C)c1cc(C(C)C)c(C(=O)Nc2nnc(NCCc3cccs3)s2)c(C(C)C)c1 | Polymerase |  | >25 µM |
| N[C@@H](CCC(=O)N[C@@H](CSSC[C@H](NC(=O)CC[C@H](N)C(=O)O)C(=O)NCC(=O)O)C(=O)NCC(=O)O)C(=O)O | Protease |  | 300 µM |
| O=C(Nc1nnc(NCc2ccco2)s1)c1ccc(Cl)c(Cl)c1 | Polymerase |  | >25 µM |
| CC(C(=O)O)P(=O)(O)O | DNA polymerase |  | 18 µM |
| CCOc1ccc2ccccc2c1C(=O)Nc1nnc(NCCSc2ccccc2)s1 | Polymerase |  | >25 µM |
| Cn1c2ccccc2c2c3c(c4c5ccccc5n(CCC#N)c4c21)CNC3=O | HCMV protein kinase pUL97 |  | 0.24 µM |
| Cc1cc2nc3c(=O)[nH]c(=O)nc-3n(C[C@H](O)[C@H](O)[C@H](O)CO)c2cc1C | Protease |  | 0.3 µM |
| CCSCCNc1nnc(NC(=O)c2ccc(I)cc2)s1 | Polymerase |  | <25 µM |
| O=P(O)(O)P(=O)(O)O | DNA polymerase |  | 150 µM |
| CCCCCCCC/C=C/CCCCCCCC(=O)Nc1nnc(NCC(c2ccccc2)c2ccccc2)s1 | Polymerase |  | <25 µM |
| CCCCCc1cc(O)cc(O)c1C(=O)Oc1cc(O)c(C(=O)Oc2cc(O)c(C(=O)O)c(CCC)c2)c(CCC)c1 | HCMV protease | scintillation proximity / radiometric | 43 µM |
| CC(=O)NCCNc1nnc(NC(=O)c2cc3ccccc3s2)s1 | Polymerase |  | >25 µM |
| O=C(O)C(O)P(=O)(O)O | DNA polymerase |  | 3 µM |